PubChem BioAssay AID1259414, Drosophila RNAi Screening Center | 2018
Test: 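Genome-wide screen for host control of endosymbiont load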 (primary screen). Cells: Drosophila JW18 cells infected with Wolbachia. Reagents: long dsRNA against Drosophila genes, 0.25 µg dsRNA per well of a 384-well plate. Duration: 5 days. Conditions: cells persistently infected with Wolbachia before knock-down; no added drug. Detection: 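Imaged fluorescence in situ signal for Wolbachia 23S rRNA per DAPI-counted host cell, given as a robust z-score within each plate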. Reading the numbers: Wolbachia per cell robust z: higher = more Wolbachia per host cell than the plate typical. Active means: 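Hit when robust z is 1.5 or more, or -1.5 or less, in at least two of three replicates; excludes dsRNAs with several or no targets, genes not expressed in JW18 and well A1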.
The deposit covers about 24,000 reagents; shown is a random part of those that have a named target and a result. Of all reagents, about 1,210 (5%) were called active. 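Inactive calls also include excluded dsRNAs with several or no targets, genes unexpressed in JW18, and well A1, regardless of score.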 A number with no mark means an inactive call.

{"gene": "CG31142", "dsRNA": "DRSC13647", "Wolbachia per cell robust z, rep 1": 0.00271, "Wolbachia per cell robust z, rep 2": -0.337, "Wolbachia per cell robust z, rep 3": 0.222}
{"gene": "Girdin", "dsRNA": "DRSC08292", "Wolbachia per cell robust z, rep 1": -7.61, "Wolbachia per cell robust z, rep 2": 0.445, "Wolbachia per cell robust z, rep 3": -0.344}
{"gene": "X11Lbeta", "dsRNA": "DRSC18156", "Wolbachia per cell robust z, rep 1": -0.791, "Wolbachia per cell robust z, rep 2": -2.03, "Wolbachia per cell robust z, rep 3": 0.25}
{"gene": "X11Lbeta", "dsRNA": "DRSC18158", "Wolbachia per cell robust z, rep 1": -3.65, "Wolbachia per cell robust z, rep 2": -1.05, "Wolbachia per cell robust z, rep 3": 0.575}
{"gene": "X11Lbeta", "dsRNA": "DRSC29533", "Wolbachia per cell robust z, rep 1": 0.635, "Wolbachia per cell robust z, rep 2": -3.2, "Wolbachia per cell robust z, rep 3": -0.139}
{"gene": "PICK1", "dsRNA": "DRSC02936", "Wolbachia per cell robust z, rep 1": 0.164, "Wolbachia per cell robust z, rep 2": 0.32, "Wolbachia per cell robust z, rep 3": 0.222}
{"gene": "Agpat2", "dsRNA": "DRSC03532", "Wolbachia per cell robust z, rep 1": 0.29, "Wolbachia per cell robust z, rep 2": -1.48, "Wolbachia per cell robust z, rep 3": -0.0424}
{"gene": "Agpat2", "dsRNA": "DRSC27901", "Wolbachia per cell robust z, rep 1": -0.928, "Wolbachia per cell robust z, rep 2": 0.317, "Wolbachia per cell robust z, rep 3": -0.828}
{"gene": "JTBR", "dsRNA": "DRSC08667", "Wolbachia per cell robust z, rep 1": -2.59, "Wolbachia per cell robust z, rep 2": -0.859, "Wolbachia per cell robust z, rep 3": 0.115}
{"gene": "zda", "dsRNA": "DRSC06936", "Wolbachia per cell robust z, rep 1": -1.05, "Wolbachia per cell robust z, rep 2": -0.378, "Wolbachia per cell robust z, rep 3": -0.798}
{"gene": "zda", "dsRNA": "DRSC25289", "Wolbachia per cell robust z, rep 1": "-1.46 (active)", "Wolbachia per cell robust z, rep 2": -1.57, "Wolbachia per cell robust z, rep 3": -1.75}
{"gene": "Rtca", "dsRNA": "DRSC18517", "Wolbachia per cell robust z, rep 1": 1.13, "Wolbachia per cell robust z, rep 2": 0.0898, "Wolbachia per cell robust z, rep 3": 1.6}
{"gene": "Mvb12", "dsRNA": "DRSC20027", "Wolbachia per cell robust z, rep 1": 1.09, "Wolbachia per cell robust z, rep 2": 0.929, "Wolbachia per cell robust z, rep 3": 1.44}
{"gene": "CG18661", "dsRNA": "DRSC02690", "Wolbachia per cell robust z, rep 1": -3.35, "Wolbachia per cell robust z, rep 2": 0.73, "Wolbachia per cell robust z, rep 3": -1.34}
{"gene": "for", "dsRNA": "DRSC00195", "Wolbachia per cell robust z, rep 1": -0.524, "Wolbachia per cell robust z, rep 2": -0.298, "Wolbachia per cell robust z, rep 3": 0.127}
{"gene": "for", "dsRNA": "DRSC00818", "Wolbachia per cell robust z, rep 1": -1.38, "Wolbachia per cell robust z, rep 2": -2.25, "Wolbachia per cell robust z, rep 3": 1.25}
{"gene": "for", "dsRNA": "DRSC25103", "Wolbachia per cell robust z, rep 1": 0.595, "Wolbachia per cell robust z, rep 2": -0.39, "Wolbachia per cell robust z, rep 3": -0.393}
{"gene": "for", "dsRNA": "DRSC36604", "Wolbachia per cell robust z, rep 1": -0.0882, "Wolbachia per cell robust z, rep 2": -3.12, "Wolbachia per cell robust z, rep 3": -0.727}

Not a retest: entries from further up.
{"gene": "X11Lbeta", "dsRNA": "DRSC29533", "Wolbachia per cell robust z, rep 1": 0.635, "Wolbachia per cell robust z, rep 2": -3.2, "Wolbachia per cell robust z, rep 3": -0.139}
{"gene": "PICK1", "dsRNA": "DRSC02936", "Wolbachia per cell robust z, rep 1": 0.164, "Wolbachia per cell robust z, rep 2": 0.32, "Wolbachia per cell robust z, rep 3": 0.222}
